{"source": "the supplement of paper PMC12637763", "binders": {"B1": {"name": "HIV-1 Env, rebound clone, placebo arm (protein)", "chain": "MIVMGMKRNWQQWWRGGILLLGMLMMICSAEDNAWVTVYYGVPVWREANVTLFCASDAKAYDTEVHNVWATHACVPTDPSPQEIKLENVTENFNMWKNDMVEQMHEDIISLWDQSLKPCVKLTPLCVTLNCTDYLGSNATNSTSGNNGTISNNITIEDSEKGEIKNCSFNVTTGIRDKMNKEYALLYKTDLVSIDNDNTSYRLISCNTSVITQACPKVTFEPIPIHYCAPAGFAILKCKDKKFNGTGPCKNVSTVQCTHGIRPVVSTQLLLNGSLAEEDVVIRSANFTNNAKVIIVQLNETVEINCTRPNNNTRKGINIGPGRAWYTIKDIVGDIRQAHCNISRPKWNRALEKIVEKLREQFGVNKTIVFNQSSGGDPEIVMHHFNCQGEFFYCNTTGLFNTRWNGTWNDTWENYTAGQDNNGTITLPCRIRQIVNLWQEVGKAMYAPPIRGYINCSSNITGLLLVRDGGIKNSTNDTDNNTEIFRPGGGDMRDNWRSELYKYKVVQVEPVGIAPTRAKRRVVQREKRAVTLGAMFLGFLGTAGSTMGAASLTLTVQVRQLLSGIVQQQNNLLRAIEAQQHLLQLTVWGIKQLQARVLAVERYLRDQQILGIWGCSGKLICTTAVPWNTSWSNKSVDHIWGNMTWMQWEREIENYTGVIYKLLEESQNQQEKNEQDLLELDKWASLWTWFDITHWLWYIRLFIMIVGGLIGLRIVFAVFSLVNRVRQGYSPLSFQTHLPAPRGPDRPEGIEEEGGEPDRGRSVRLVNGFLALIWDDLRSLCLFSYHRLRDLLLIVTRIVELLGRRGWEAIKYLWNLLQYWSQELKNSAVSLLNAFAIAVAEGTDRVIEIIQGAFRAIIHIPRRIRQGLERSLL"}, "B2": {"name": "HIV-1 Env, rebound clone, placebo arm (protein)", "chain": "B1 chain with D420S, G423E"}, "B3": {"name": "HIV-1 Env, rebound clone, placebo arm (protein)", "chain": "MIVMGMKRNWQQWWRGGILLLGMLMMICSAEDNAWVTVYYGVPVWREANVTLFCASDAKAYDTEVHNVWATHACVPTDPSPQEIKLENVTENFNMWKNDMVEQMHEDIISLWDQSLKPCVKLTPLCVTLNCTDYLGSNATNSTSGNNGTISNNITIEDSEKGEIKNCSFNVTTGIRDKMNKEYALLYKTDLVSIDNDNTSYRLISCNTSVITQACPKVTFEPIPIHYCAPAGFAILKCKDKKFNGTGPCKNVSTVQCTHGIRPVVSTQLLLNGSLAEEDVVIRSANFTNNAKVIIVQLNETVEINCTRPNNNTRKGINIGPGRAWYTIKDIVGDIRQAHCNISRPKWNRALEKIVEKLREQFGVNKTIVFNQSSGGDPEIVMHHFNCQGEFFYCNTTGLFNTRWNDTWENYTAGQGNNETITLPCRIRQIVNLWQEVGKAMYAPPIRGYINCSSNITGLLLVRDGGIKNSTNDTDNNTEIFRPGGGDMRDNWRSELYKYKVVQVEPVGIAPTRAKRRVVQREKRAVTLGAMFLGFLGTAGSTMGAASLTLTVQVRQLLSGIVQQQNNLLRAIEAQQHLLQLTVWGIKQLQARVLAVERYLRDQQILGIWGCSGKLICTTAVPWNTSWSNKSVDHIWGNMTWMQWEREIENYTGVIYKLLEESQNQQEKNEQDLLELDKWASLWTWFDITHWLWYIRLFIMIVGGLIGLRIVFAVFSLVNRVRQGYSPLSFQTHLPAPRGPDRPEGIEEEGGEPDRGRSVRLVNGFLALIWDDLRSLCLFSYHRLRDLLLIVTRIVELLGRRGWEAIKYLWNLLQYWSQELKNSAVSLLNAFAIAVAEGTDRVIEIIQGAFRAIIHIPRRIRQGLERSLL"}, "B4": {"name": "HIV-1 Env, rebound clone, placebo arm (protein)", "chain": "B3 chain with V65I"}, "B5": {"name": "HIV-1 Env, rebound clone, placebo arm (protein)", "chain": "B3 chain with T402G, R403T"}, "B6": {"name": "HIV-1 Env, rebound clone, placebo arm (protein)", "chain": "MRVRGILRNYPQWWIWGILGFWMVMICNVVGNLWVTVYYGVPVWKDAKTTLFCASDAKAYDKEVHNVWATHACVPTDPNPQELVLGNVTENFNMWKNDMVDQMHEDVISLWDQSLKPCVKLTPLCVTLECVNANVTTVNVTNENINGTEEIKNCTFNATTEINDRKTREHALFYKLDIVPLETNHSSTKYRLINCNTSAVTQACPKVNFDPIPIHYCAPAGYAILKCNNKTFNGTGPCQNVSTVQCTHGIKPVVSTQLLLNGSLAEGEIIIRSENLTNNAKTIIVHLNDSIEITCIRPNNNTRKSIRIGPGQTFYATGDIIGDIRQAHCNISRNKWNQTLQRVSKKLGEHFPNATTIKFTSPSGGDLEIITHSFNCRGEFFYCNTSQLFNRTYMPNDTGSDSTGNSSDITDITIPCRIKQFINMWQGVGRAIYAPPIAGNITCKSNITGILLTRDGGRTNDNSTETFRPGGGDMRDNWRSELYKYKVVEIKPLGIAPTEAKRRVVAREKRAAGLGAVIFGFLGAAGSTMGAASMALTVQARQLLSGIVQQQSNLLRAIEAQQHMLQLTVWGIKQLQARVLAVERYLKDQRLLGIWGCSGKLICPTTVPWNSSWSNRSLADIWENMTWMQWDKEIDNYTNIIYSLLEESQNQQERNEQELLALDSWNSLWTWFSISNWLWYIKIFIMIVGGLIGLRIIFAVLSIVNRVRQGYSPLSFQTLTPNPREPDRLRGIEEEGGEQDRDRSIRLVNGFLALVWEDLRSLCLFSYHRLRDFILVTARAVELLGRSSYKGLQRGWEALKYLGSLVQYWGLELKKSAISLFDTLAIVIAGWTDRVIELGQRIGRTILHIPRRIRQGFERALL"}}, "note": "Where a chain is given by its changes, count along the chain named. The list shows a part of the results. Env chains of viruses from a treatment-interruption trial, translated from the printed DNA. IC50 / IC80 of two broadly neutralizing antibodies; lower = more sensitive virus; >50 µg/ml means not reached and <0.001 µg/ml is below the lowest dose. No active / inactive call."}
{"molecular_target": "antibody 10-1074", "assay": "neutralization IC50; higher = virus less sensitive to the antibody", "description": "(§1)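 Pseudovirus bearing the Env chain mixed with antibody, from 50 µg/ml in fivefold dilutions, on TZM-bl reporter cells, in duplicate.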", "units": {"neutralization IC50": "µg/mL"}}
{"binder": "B1", "neutralization IC50": 0.15}
{"binder": "B2", "neutralization IC50": 0.243}
{"binder": "B3", "neutralization IC50": 0.299}
{"binder": "B4", "neutralization IC50": 0.258}
{"binder": "B5", "neutralization IC50": 0.238}
{"binder": "B6", "neutralization IC50": 0.011}
{"molecular_target": "antibody 3BNC117", "assay": "neutralization IC50; higher = virus less sensitive to the antibody", "description": "as §1", "units": {"neutralization IC50": "µg/mL"}}
{"binder": "B1", "neutralization IC50": 0.255}
{"binder": "B2", "neutralization IC50": 0.238}
{"binder": "B3", "neutralization IC50": 0.316}
{"binder": "B4", "neutralization IC50": 0.285}
{"binder": "B5", "neutralization IC50": 0.251}
{"binder": "B6", "neutralization IC50": 0.034}
{"molecular_target": "antibody 10-1074", "assay": "neutralization IC80; higher = virus less sensitive to the antibody", "description": "as §1", "units": {"neutralization IC80": "µg/mL"}}
{"binder": "B1", "neutralization IC80": 0.424}
{"binder": "B2", "neutralization IC80": 0.909}
{"binder": "B3", "neutralization IC80": 1.03}
{"binder": "B4", "neutralization IC80": 0.93}
{"binder": "B5", "neutralization IC80": 0.857}
{"binder": "B6", "neutralization IC80": 0.027}
{"molecular_target": "antibody 3BNC117", "assay": "neutralization IC80; higher = virus less sensitive to the antibody", "description": "as §1", "units": {"neutralization IC80": "µg/mL"}}
{"binder": "B1", "neutralization IC80": 0.886}
{"binder": "B2", "neutralization IC80": 1.15}
{"binder": "B3", "neutralization IC80": 1.46}
{"binder": "B4", "neutralization IC80": 1.8}
{"binder": "B5", "neutralization IC80": 0.938}
{"binder": "B6", "neutralization IC80": 0.099}
